Measurements taken from US10681911B2, “Anthelminthic composition” (AgResearch Limited, priority 2016, dated 2020).
Only a part of the results on these compounds is given; other tests are left out.

Tested on: Haemonchus contortus L3
Assay: Field study, L3 numbers on pasture and in faeces
Conditions: 250 L/ha on 1 m2 plots

ammonium nitrate
impact on L3 numbers in faeces (FIG. 3a): Neither ammonium nitrate nor calcium hydroxide applied alone or in combination had any impact on L3 numbers in faeces | impact on L3 numbers on pasture (result in words, FIG. 3b, FIG. 4): neither ammonium nitrate nor calcium hydroxide applied alone had any impact on L3 numbers on pasture
